Laboratory results: PubChem BioAssay AID624099 (ICCB-Longwood, 2012)

Test: 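Host factors E2 relies on to silence an HPV18 LCR reporter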 (primary screen)
Cells: human C33A cervical carcinoma cells (HPV-negative) stably expressing BPV1 E2 and an HPV18 LCR luciferase reporter
Reagent: siRNA pool against human genes, 40 nM
Timing: 72 h
Measured: 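Per-well luciferase luminescence, z-scored on each plate against the plate mean and SD with control wells left out, then averaged across three replicate plates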
Direction: mean z-score and z-score: higher = stronger reporter signal, weaker E2 silencing
Hit rule: 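Mean z ≥ 2 together with z ≥ 2 in two or more of the three replicates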
The whole screen tested about 21,000 reagents; this is a random part of them. Over the whole deposit, 497 (2.4%) were called active. 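Higher z means weaker E2 silencing; only reporter increases were scored, and knock-downs that hurt cell survival may mask genuine repressor factors.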 A number with no mark means an inactive call. Reagent sequences are not shown.

{"gene symbol": "LIX1L (GeneID 128077)", "mean z-score": -0.22, "z-score, replicate A": -0.44, "z-score, replicate B": 0.04, "z-score, replicate C": -0.27}
{"gene symbol": "NCBP3 (GeneID 55421)", "mean z-score": 0.31, "z-score, replicate A": 0.55, "z-score, replicate B": 0.35, "z-score, replicate C": 0.03}
{"gene symbol": "KCNMB3 (GeneID 27094)", "mean z-score": -1.53, "z-score, replicate A": -1.35, "z-score, replicate B": -1.58, "z-score, replicate C": -1.67}
{"gene symbol": "SKP1 (GeneID 6500)", "mean z-score": "2.22 (active)", "z-score, replicate A": 2.41, "z-score, replicate B": 2.23, "z-score, replicate C": 2.02}
{"gene symbol": "EVA1A (GeneID 84141)", "mean z-score": -0.69, "z-score, replicate A": -0.9, "z-score, replicate B": -0.77, "z-score, replicate C": -0.41}
{"gene symbol": "CLUHP3 (GeneID 100132341)", "mean z-score": 1.82, "z-score, replicate A": 1.65, "z-score, replicate B": 1.83, "z-score, replicate C": 1.99}
{"gene symbol": "PELI3 (GeneID 246330)", "mean z-score": 1.54, "z-score, replicate A": 1.61, "z-score, replicate B": 1.78, "z-score, replicate C": 1.24}
{"gene symbol": "CDCA3 (GeneID 83461)", "mean z-score": 0.34, "z-score, replicate A": 0.46, "z-score, replicate B": 0.16, "z-score, replicate C": 0.39}
{"gene symbol": "H1-4 (GeneID 3008)", "mean z-score": -0.09, "z-score, replicate A": -0.27, "z-score, replicate B": -0.02, "z-score, replicate C": 0.04}
{"gene symbol": "PMCHL2 (GeneID 5370)", "mean z-score": -0.11, "z-score, replicate A": -0.19, "z-score, replicate B": -0.28, "z-score, replicate C": 0.13}
{"gene symbol": "LOC389230 (retired record) (GeneID 389230)", "mean z-score": 0.82, "z-score, replicate A": 1.29, "z-score, replicate B": 0.69, "z-score, replicate C": 0.47}
{"gene symbol": "TMEM163 (GeneID 81615)", "mean z-score": -0.15, "z-score, replicate A": 0, "z-score, replicate B": -0.27, "z-score, replicate C": -0.19}
{"gene symbol": "BARHL2 (GeneID 343472)", "mean z-score": -0.64, "z-score, replicate A": -0.57, "z-score, replicate B": -0.74, "z-score, replicate C": -0.61}
{"gene symbol": "ZCCHC3 (GeneID 85364)", "mean z-score": -0.99, "z-score, replicate A": -1, "z-score, replicate B": -0.88, "z-score, replicate C": -1.1}
{"gene symbol": "ENTPD3 (GeneID 956)", "mean z-score": -1.09, "z-score, replicate A": -0.75, "z-score, replicate B": -1.21, "z-score, replicate C": -1.3}
{"gene symbol": "PGLS (GeneID 25796)", "mean z-score": 1.96, "z-score, replicate A": 1.87, "z-score, replicate B": 2.12, "z-score, replicate C": 1.89}
{"gene symbol": "RBM6 (GeneID 10180)", "mean z-score": 0.06, "z-score, replicate A": -0.12, "z-score, replicate B": -0.19, "z-score, replicate C": 0.49}
{"gene symbol": "GLMN (GeneID 11146)", "mean z-score": -0.54, "z-score, replicate A": -0.56, "z-score, replicate B": -0.49, "z-score, replicate C": -0.57}
{"gene symbol": "LOC388568 (retired record) (GeneID 388568)", "mean z-score": -1.19, "z-score, replicate A": -1.42, "z-score, replicate B": -0.98, "z-score, replicate C": -1.16}
{"gene symbol": "SERPINA7 (GeneID 6906)", "mean z-score": -0.34, "z-score, replicate A": -0.18, "z-score, replicate B": -0.03, "z-score, replicate C": -0.81}
{"gene symbol": "TLR5 (GeneID 7100)", "mean z-score": 0.31, "z-score, replicate A": 0.06, "z-score, replicate B": 0.79, "z-score, replicate C": 0.06}

Entries listed so far marked active (1):
{"gene symbol": "SKP1 (GeneID 6500)", "mean z-score": "2.22 (active)", "z-score, replicate A": 2.41, "z-score, replicate B": 2.23, "z-score, replicate C": 2.02}
